Assay: Inhibition of SARS CoV2 C-terminal His6-tagged 3CL protease (3264 to 3569 residues) expressed in Escherichia coli BL21 DE3 using rr-K(MCA)-ATLQAIAS-K(DNP)-COOH preincubated for 1 hr followed by substrate addition and measured after 1 hr in presence of 0.05% Tween-20
Design: species or system Severe acute respiratory syndrome coronavirus 2
Outline: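 Purified recombinant 3CL-Pro at 50 nM final with quenched fluorogenic peptide at 10 μM final (KM), in 20 mM Tris, 150 mM NaCl, 1 mM EDTA, 1 mM DTT, 0.05% Tween-20, pH 7.4. Drug and enzyme were preincubated 1 h at 37 °C, then substrate was added and fluorescence followed 1 h.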

O=C1c2c(O)cccc2Cc2cccc(O)c21 [ANTHRALIN]
IC50: > 200 µM
